Results of unrelated studies side by side (data: NIAID ChemDB).

Rows are shuffled and stem from different studies.

structure	organism	strain	kind	measure	target	cells	result
O=C(N[C@@H](Cc1cc2ccccc2[nH]1)C(=O)O)c1ccc2c(c1)nc(-c1ccoc1)n2C1CCCCC1	Poliovirus	-	target	IC50	RNA-dependent RNA polymerase	-	>25 µM
CC(=O)NC(C(=O)N1CCSCC1)[C@H]1CC(C(=O)O)C[C@@H]1N=C(N)N	Influenza A virus (H6N2)	-	target	IC50	Neuraminidase	-	0.23 µM
O=C(O)COc1ccc2[nH]cc(CC(NC(=O)c3ccc4c(c3)nc(-c3ccoc3)n4C3CCCCC3)C(=O)O)c2c1	Poliovirus	-	target	IC50	RNA-dependent RNA polymerase	-	>25 µM
NC(=O)c1c[se]c([C@@H]2O[C@H](CO)[C@@H](O)[C@H]2O)n1	Yellow fever virus	Asibi	culture	EC50	-	VERO	0.005 µg/mL
CCC(CC)NC(=O)C(NC(C)=O)[C@H]1C[C@@H](C(=O)O)C[C@@H]1N=C(N)N	Influenza A virus (H6N2)	-	target	IC50	Neuraminidase	-	3 µM
Nc1ccn(C[C@H]2COP(=O)(O)CO2)c(=O)n1	Camelpox virus	-	culture	EC50	-	3T3	6.3 µM
NC1=NC(N)N(CCOCP(=O)(O)O)C=C1	-	-	toxicity	CC50	-	PHK	17.7 µg/mL
CC(=O)NC(C(=O)N1CCCCCC1)[C@H]1CC(C(=O)O)C[C@@H]1N=C(N)N	Influenza A virus (H6N2)	-	target	IC50	Neuraminidase	-	0.99 µM
O=C(N[C@@H](Cc1c[nH]c2ccc(O)cc12)C(=O)O)c1ccc2c(c1)nc(-c1ccoc1)n2[C@@H]1CCC[C@H]1OCc1ccccc1	Poliovirus	-	target	IC50	RNA-dependent RNA polymerase	-	>25 µM
Nc1nc2c(ncn2C[C@@H](CO)OCP(=O)(O)O)c(=O)[nH]1	-	-	toxicity	CC50	-	PHK	7.5 µg/mL
CCCN(CCC)C(=O)C(NC(C)=O)[C@H]1CC(C(=O)O)C[C@@H]1N=C(N)N	Influenza A virus (H6N2)	-	target	IC50	Neuraminidase	-	0.06 µM
Nc1ncnc2c1nnn2C[C@@H](CO)OCP(=O)(O)O	-	-	toxicity	CC50	-	PHK	8.3 µg/mL
O=C(O)COc1ccc(C[C@@H](NC(=O)Cc2ccc3c(c2)nc(-c2ccccn2)n3C2CCCCC2)C(=O)O)cc1	Poliovirus	-	target	IC50	RNA-dependent RNA polymerase	-	>25 µM
CC(=O)NC(C(=O)NC(C)CC(C)C)[C@H]1CC(C(=O)O)C[C@@H]1N=C(N)N	Influenza A virus (H6N2)	-	target	IC50	Neuraminidase	-	8.4 µM
CN(C)CCCNC(=O)COc1ccc(-c2nc3cc(C(=O)O)ccc3n2C2CCCCC2)cc1	Poliovirus	-	target	IC50	RNA-dependent RNA polymerase	-	>25 µM
NC(=O)c1csc([C@@H]2O[C@H](CO)[C@@H](O)[C@H]2O)n1	Rift valley fever virus	Zagazig 501	culture	EC50	-	VERO 76	1 µg/mL
O=C(N[C@@H](Cc1c[nH]c2ccc(O)cc12)C(=O)O)c1ccc2c(c1)nc(-c1ccc(OCCO)cc1)n2C1CCCCC1	Poliovirus	-	target	IC50	RNA-dependent RNA polymerase	-	>25 µM
CC(C)CCCCCOP(=O)(COCCn1cnc2c(NC3CC3)nc(N)nc21)OCCCCCC(C)C	-	-	toxicity	CC50	-	PHK	9.7 µg/mL
COc1ccc(CNC(=O)c2ccc3c(c2)nc(-c2ccccn2)n3[C@H]2CCCC[C@@H]2O)cc1OC	Poliovirus	-	target	IC50	RNA-dependent RNA polymerase	-	>25 µM
Nc1ccn(C[C@@H](CO)OCP(=O)(O)O)c(=O)n1	Cowpox virus	-	culture	EC50	-	3T3	3.2 µM
Nc1nccc2c1ncn2C[C@@H](CO)OCP(=O)(O)O	-	-	toxicity	CC50	-	PHK	7.3 µg/mL
CCN(Cc1ccccc1)C(=O)C(NC(C)=O)[C@H]1CC(C(=O)O)C[C@@H]1N=C(N)N	Influenza A virus (H6N2)	-	target	IC50	Neuraminidase	-	0.67 µM
CNc1nc(N)nc2c1ncn2CCOCP(=O)(O)O	-	-	toxicity	CC50	-	PHK	5 µg/mL
O=C(N[C@@H](Cc1c[nH]c2ccc(O)cc12)C(=O)O)c1ccc2c(c1)nc(-c1ccccc1)n2C1CCCCC1	Poliovirus	-	target	IC50	RNA-dependent RNA polymerase	-	>25 µM

ICn is the concentration giving n% inhibition. ECn: concentration that inhibits the pathogen or its effect by n%. Blank or dashed fields: not listed here. CCn: concentration that lowers growth or viability of the cells by n%.